Compound potency records, mixed from different reports. Data source: NIAID ChemDB in PubChem.

Shared fields: tests in culture; agent: Cryptosporidium parvum; read-out: inhibition

Blank or dashed fields: not listed here. Rows are shuffled and stem from different studies. Inhibition is in % at the dose shown (toxicity tests: loss of growth or viability).

structure,cell line,dose,value
O=C1/C(=C/c2ccc(O)c(O)c2)Oc2cc(O)ccc21,,10 µM,0%
CCN(CC)CCSc1c2ccccc2nc2ccccc12,,50 µg/mL,15%
O=C1/C(=C/c2ccc(O)cc2O)Oc2cc(O)ccc21,,50 µM,99%
CC[C@@H](C(=O)[C@@H](C)[C@@H](O)[C@H](C)CCc1ccc(C)c(O)c1C(=O)O)[C@H]1O[C@](CC)([C@H]2CC[C@](O)(CC)[C@H](C)O2)C[C@@H]1C,A549,0.125 µg/mL,12%
COc1cc(/C=C2\Oc3cc(O)cc(O[C@@H]4O[C@H](CO)[C@@H](O)[C@H](O)[C@H]4O)c3C2=O)cc(OC)c1O,,25 µM,58%
CCN(CC)CCSc1c2ccccc2nc2cc(Cl)ccc12,,10 µg/mL,37%
CCn1nc(C)c2c1C(=O)c1ccccc1C2=O,,10 µM,<10%
O=C(c1ccccc1)c1oc2cc(O)cc(O)c2c1O,,25 µM,17%
NC[C@@H]1O[C@H](O[C@H]2[C@@H](O)[C@H](O[C@@H]3[C@@H](O)[C@H](N)C[C@H](N)[C@H]3O[C@H]3O[C@H](CO)[C@@H](O)[C@H](O)[C@H]3N)O[C@@H]2CO)[C@H](N)[C@@H](O)[C@@H]1O,,10 µM,<10%
COc1cc(/C=C2\Oc3cc(O)cc(O)c3C2=O)cc(OC)c1O,,10 µM,1%
COc1cccc2c1C(=O)c1cnn(C)c1C2=O,,100 µM,<10%
CCSc1c2ccccc2nc2cc(N)ccc12,,1 µg/mL,60%
O=C1c2ccccc2C(=O)c2[nH]ncc21,,25 µM,<10%
COc1cc(/C=C2\Oc3cc(O)cc(O)c3C2=O)ccc1O,,10 µM,16%
O=C1c2cccc(O)c2C(=O)c2cn[nH]c21,,10 µM,<10%
CCSc1c2ccccc2nc2cc(Cl)ccc12,,10 µg/mL,10%
Cn1ncc2c1C(=O)c1cccc(O)c1C2=O,,100 µM,100%
CC(=O)Oc1ccccc1C(=O)Nc1ncc([N+](=O)[O-])s1,A549,8 µg/mL,55.4%

For reference, 2 entries again:

O=C(c1ccccc1)c1oc2cc(O)cc(O)c2c1O ; dose: 25 µM ; value: 17%
CCSc1c2ccccc2nc2cc(Cl)ccc12 ; dose: 10 µg/mL ; value: 10%